# This is a selection; strong and weak results do not stand in their true shares. Inconclusive results are not listed. Calls of active or inactive are those of the source. The call rests on the fitted dose curve.
# Experiment: qHTS for Inhibitors of Cell Surface uPA Generation: Wild-type Protective Antigen (WT-PrAg) Counterscreen for Cherry-picked Compounds; further: 0% is about no effect
# Conditions: cells, WT protective antigen toxicity counterscreen; at 115 µM (top of the series)
structure (smiles),measurement,value
CCN(CC)CCCOC(=O)C(O)(c1ccccc1)c1ccccc1,activity (protection),inactive: 5.86%
